Measured values from several laboratories, pooled; numbers as filed in NIAID ChemDB.

All rows: whole-cell or culture tests; species: Mycobacterium tuberculosis

Inhibition is in % at the dose shown (toxicity tests: loss of growth or viability). MIC bound: limit read from a one-dose screen. Neighbouring rows are from separate reports. MIC50, MIC90 and the like: level of inhibition, or share of isolates inhibited. ECn is the concentration giving n% inhibition of infection, replication or growth. Blank or dashed fields: not listed here.

SMILES	strain	endpoint	tested at	method	value
O=C(O)CSc1nnc(-n2c(-c3ccccc3)nc3ccc(I)cc3c2=O)s1	H37Rv	MIC	-	-	10 µg/mL
CCCCCCCC1(C)Cn2cc([N+](=O)[O-])nc2O1	H37Rv	MIC	-	-	0.0037 µg/mL
CCOC(=O)C1=NN(c2ccccc2)C(=O)C1N=Nc1ccc(S(=O)(=O)Nc2ccccn2)cc1	H37Rv	MIC	-	BACTEC	≥12.5 µg/mL
CCOC(=O)C/C(C)=N/NC(=O)CCn1c(-c2ccc(Cl)cc2)cc(C(=O)OCC)c1C	H37Rv	inhibition	6.25 µg/mL	-	94%
CC(C)(C)C1=CC(=O)C(C#N)=C(C#N)C1=O	H37Rv	MIC	-	BACTEC	32 µg/mL
CO[C@H]1/C=C/O[C@@]2(C)Oc3c(C)c(O)c4c(O)c(c(/C=N/N5CCN(C)CC5)c(O)c4c3C2=O)NC(=O)/C(C)=C\C=C\[C@H](C)[C@H](O)[C@@H](C)[C@@H](O)[C@@H](C)[C@H](O)[C@@H]1C	-	MIC	-	-	0.05 µg/mL
O=C(O)c1cccc(N=Nc2c(S(=O)(=O)O)ccc3c2C(=O)c2ccccc2C3=O)c1O	H37Rv	MIC bound	-	BACTEC	>12.5 µg/mL
CC(=O)n1cc(/C=N\NC(=O)c2ccncc2)c2ccccc21	H37Rv	MIC	-	-	0.2 µg/mL
CC(=O)Nc1ccc(S(=O)(=O)N/N=C/c2ccc(Cl)c(Cl)c2)cc1	H37Rv	MIC bound	-	BACTEC	>12.5 µg/mL
COC(=O)c1sc(-c2cccnc2)nc1OCc1cnnn1-c1cc2ccc(O)cc2oc1=O	H37Rv	MIC	-	resazurin	26.18 µM
O=C1c2ccccc2C(=O)N1c1ccc(S(=O)(=O)c2ccc(N3C(=O)c4ccccc4C3=O)cc2)cc1	H37Rv	MIC90	-	resazurin	>125 µg/mL
CON=C1CN(c2nc(=O)c3cc(C(F)(F)F)cc([N+](=O)[O-])c3s2)C1	16802 clinical isolate	MIC90	-	resazurin	0.031 µg/mL
Nc1ccc2cc(-n3nncc3COc3nc(-c4cccnc4)sc3C=O)c(=O)oc2c1	H37Rv	MIC	-	resazurin	13.99 µM
Cc1cc(C)[n+]2[nH]c(C(=O)NS(=O)(=O)c3ccccc3CF)nc2n1	-	MIC	-	broth dilution	<0.25 µg/mL
NCC(=O)c1ccc(O)c(O)c1	H37Rv	MIC	-	-	10 µg/mL
Cc1cc(/C=N/N2CCN(/N=C/c3cc(C)n(-c4ccccc4)c3C)CC2)c(C)n1-c1ccccc1	H37Rv	inhibition	6.25 µg/mL	resazurin	4%
CCOc1ccc2cc(-n3nncc3COc3nc(-c4ccccn4)sc3C=O)c(=O)oc2c1	H37Rv	MIC	-	resazurin	26.29 µM
CO[C@H]1/C=C/O[C@@]2(C)Oc3c(C)c(O)c4c(O)c(c(SCCN=C(N)N)c(O)c4c3C2=O)NC(=O)/C(C)=C\C=C\[C@H](C)[C@H](O)[C@@H](C)[C@@H](O)[C@@H](C)[C@H](OC(C)=O)[C@@H]1C	-	MIC	-	-	1 µg/mL
CC1=C(O)C(C)(C2CCCCC2)SC1=O	H37Rv	MIC	-	-	>1000 µM
C=C1C(=O)OC2CC(C)C(C(O)CC(C)O)=CCC12	H37Rv	inhibition	12.8 µg/mL	BACTEC	15%
O=C(N=Nc1c(O)[nH]c2cc(Cl)ccc12)Nc1ccc(Cl)cc1	H37Rv	inhibition	6.25 µg/mL	-	<20%
Cc1ccc2c(c1)c(N=NC(=S)NC1CCCCC1)c(O)n2C	H37Rv	EC90	-	broth dilution / resazurin	>100 µg/mL
COc1ccc2nc(C)cc(N/N=C/c3ccccc3[N+](=O)[O-])c2c1	H37Rv	MIC	-	-	10 µg/mL
O=[N+]([O-])c1cn2c(n1)OC1CCCCC12	H37Rv	MIC	-	-	31.2 µg/mL
Cn1c(O)c(N=NC(=S)NC2CCCCC2)c2cc(OC(F)(F)F)ccc21	H37Rv	EC90	-	broth dilution / resazurin	>100 µg/mL
O=C(O)c1sc(-c2ccccc2)nc1OCc1cnnn1-c1cc2ccc(O)cc2oc1=O	H37Rv	MIC	-	resazurin	27.03 µM
NC(=O)c1cnccn1	Isolate 98-31	MIC	-	-	900 µg/mL
CO[C@H]1/C=C/O[C@@]2(C)Oc3c(C)c(O)c4c(c3C2=O)C(=O)C=C(NC(=O)C(C)CCC[C@H](C)[C@H](O)[C@@H](C)[C@@H](O)[C@@H](C)[C@H](OC(C)=O)[C@@H]1C)C4=O	-	MIC	-	-	0.01 µg/mL
CCC(C)C1(C)SC(=O)C(C)=C1O	H37Rv	MIC	-	-	500 µM
CO[C@H]1/C=C/O[C@@]2(C)Oc3c(C)c(O)c4c(O)c(c(/C=N/N5CCN(C)CC5)c(O)c4c3C2=O)NC(=O)/C(C)=C\C=C\[C@H](C)[C@H](O)[C@@H](C)[C@@H](O)[C@@H](C)[C@H](OC(C)=O)[C@@H]1C	-	MIC	-	-	0.5 µg/mL
O=C1C(O)=C(c2ccccc2)C(=O)C(O)=C1c1ccccc1	H37Rv	MIC bound	-	BACTEC	>12.8 µg/mL
O=C(NNC(=O)c1ccc(Cl)c([N+](=O)[O-])c1)c1ccncc1	H37Rv (ATCC 27294)	MIC	-	-	0.5 µg/mL
O=[N+]([O-])c1cn2c(n1)OC(Oc1ccccc1)C2	H37Rv	MIC	-	-	0.24 µg/mL
CC1=C(O)C(C)(C(C)C)SC1=O	H37Rv	MIC	-	-	>1000 µM
O=c1c2cc(I)ccc2nc(-c2ccccc2)n1-c1n[nH]c(=S)s1	H37Rv	MIC	-	-	40 µg/mL
CO/N=C1\CCCN(c2nc(=O)c3cc(C(F)(F)F)cc([N+](=O)[O-])c3s2)CC1	H37Rv	MIC90	-	resazurin	0.06 µg/mL
CC1=C(O)C(C)(CC(C)C)SC1=O	H37Rv	MIC	-	-	1000 µM
Cc1cc(N/N=C/c2ccccc2O)c2c(C)cccc2n1	H37Rv	MIC	-	-	10 µg/mL
CC1CCC2(CC1)Cn1cc([N+](=O)[O-])nc1O2	H37Rv	MIC	-	-	0.12 µg/mL
C=CCSc1nnc(-n2c(-c3ccccc3)nc3ccc(I)cc3c2=O)s1	H37Rv	MIC	-	-	>40 µg/mL
Cc1ccc2c(c1)c(N=NC(=S)Nc1ccc(Cl)cc1)c(O)n2C	H37Rv	EC50	-	broth dilution / resazurin	>100 µg/mL
CN(CC1CCCCC1)C1CCN(c2nc(=O)c3cc(C(F)(F)F)cc([N+](=O)[O-])c3s2)C1	H37Rv	MIC90	-	resazurin	0.088 µg/mL
CCCCCCCCCCC1(C)SC(=O)C(C)=C1O	H37Rv	MIC	-	-	1000 µM
CCN(CCNc1ccc(C)c2sc3cc(Cl)ccc3c(=O)c12)CC(C)(C)O	H37Rv	inhibition	12.5 µg/mL	BACTEC	19%
O=[N+]([O-])c1cn(C2CCCCC2O)c([N+](=O)[O-])n1	H37Rv	MIC	-	-	62.5 µg/mL
Oc1[nH]c2ccc(OC(F)(F)F)cc2c1N=NC(=S)Nc1ccc(Br)cc1	H37Rv	EC90	-	broth dilution / resazurin	1.53 µg/mL
CN1CCN(CCCN2c3ccccc3Sc3ccc(C(F)(F)F)cc32)CC1	Isoniazid-resistant	MIC	-	-	8 µg/mL
COc1ccc2c3c1OC1C4(OC)C=CC5(c6c(OC)ccc(O)c64)C(C2)N(C)CCC315	H37Rv	MIC bound	-	BACTEC	>6.25 µg/mL
Cc1cc(N/N=C/c2ccccc2[N+](=O)[O-])c2cccc(C)c2n1	H37Rv	MIC	-	-	10 µg/mL
Oc1c(N=NC(=S)Nc2ccccc2)c2cc(OC(F)(F)F)ccc2n1CN1CCOCC1	H37Rv	EC50	-	broth dilution / resazurin	4.847 µg/mL
O=C(NNC(=O)c1ccc(F)cc1F)c1ccncc1	H37Rv (ATCC 27294)	MIC	-	-	10 µg/mL
CO[C@H]1/C=C/O[C@@]2(C)Oc3c(C)c(=O)c4c(O)c(c5[nH]c6ccccc6nc5c4c3C2=O)NC(=O)/C(C)=C\C=C\[C@H](C)[C@H](O)[C@@H](C)[C@@H](O)[C@@H](C)[C@H](OC(C)=O)[C@@H]1C	-	MIC	-	-	0.5 µg/mL
O=C(NNC(=O)c1ccc([N+](=O)[O-])c([N+](=O)[O-])c1)c1ccncc1	H37Rv (ATCC 27294)	MIC	-	-	2 µg/mL
Nc1ccc2cc(-n3nncc3COc3nc(-c4cccnc4)sc3C(=O)O)c(=O)oc2c1	H37Rv	MIC	-	resazurin	27.03 µM
O=c1c2ccccc2nc(-c2ccccc2)n1-c1n[nH]c(=S)s1	H37Rv	MIC	-	-	10 µg/mL
COc1cc(-c2nn3c(C(F)(F)F)nnc3s2)cc(OC)c1OC	Clinical isolate	MIC	-	resazurin	8 µg/mL
COC(=O)N1CCCCC(CCC#CC[Si](C)(C)C)C1=O	H37Rv	inhibition	12.5 µg/mL	BACTEC	0%
O=C(NNC(=O)c1c(Cl)cccc1Cl)c1ccncc1	H37Rv (ATCC 27294)	MIC	-	-	15 µg/mL
Cc1ccc(NCCCC2CCCN3CCCCC23)c2c(=O)c3ccccc3sc12	H37Rv	MIC bound	-	BACTEC	≤12.5 µg/mL
COc1c(N2C[C@@H]3CCCN[C@@H]3C2)c(F)cc2c(=O)c(C(=O)O)cn(C3CC3)c12	H37Rv	MIC	-	-	0.177 µg/mL
CCOP(=S)(Oc1cnn(C)c(=O)c1OC)OC(C)C	H37Rv	inhibition	12.5 µg/mL	BACTEC	4%
O=C(O)CSc1nnc(-n2c(-c3ccccc3)nc3ccc(Br)cc3c2=O)s1	H37Rv	MIC	-	-	20 µg/mL
CO[C@H]1/C=C/O[C@@]2(C)Oc3c(C)c(O)c4c(c3C2=O)C(=O)C=C(NC(=O)/C(C)=C\C=C\[C@H](C)[C@H](O)[C@@H](C)[C@@H](O)[C@@H](C)[C@H](OC(C)=O)[C@@H]1C)C4=O	-	MIC	-	-	12 µg/mL
O=C(O)CSc1nnc(-n2c(-c3ccccc3)nc3ccccc3c2=O)s1	H37Rv	MIC	-	-	40 µg/mL
Cc1ccc2[nH]c(O)c(N=NC(=S)Nc3ccc(Cl)cc3)c2c1	H37Rv	EC90	-	broth dilution / resazurin	3.568 µg/mL
CC1=C(O)C(C)(Cc2cc(Cl)cc(Cl)c2)SC1=O	H37Rv	MIC	-	-	500 µM
O=C1C(Cl)=CC(=NCl)C=C1Cl	H37Rv	MIC bound	-	BACTEC	>12.5 µg/mL
CO[C@H]1/C=C/O[C@@]2(C)Oc3c(C)c(O)c4c(O)c(c(SCCN)c(O)c4c3C2=O)NC(=O)/C(C)=C\C=C\[C@H](C)[C@H](O)[C@@H](C)[C@@H](O)[C@@H](C)[C@H](OC(C)=O)[C@@H]1C	-	MIC	-	-	0.5 µg/mL
Clc1ccc2ccc3cccnc3c2n1	H37Rv	MIC bound	-	BACTEC	>12.5 µg/mL
CN(CC1CCCCC1)C1CCN(c2nc(=O)c3cc(C(F)(F)F)cc([N+](=O)[O-])c3s2)CC1	16802 clinical isolate	MIC90	-	resazurin	0.016 µg/mL
CCOC(=O)C1C2(C)NC(=O)C1(Cc1ccccc1)c1cc(C)c(C)cc1O2	H37Rv	inhibition	12.5 µg/mL	BACTEC	28%
NNC(=O)c1ccncc1	Pan-susceptible clinical isolate 6	MIC	-	-	0.06 µg/mL
NNC(=O)c1cc(-c2ccccc2)nc2ccccc12	H37Rv	inhibition	12.5 µg/mL	BACTEC	21%
Cc1ccc2[nH]c(O)c(N=NC(=S)Nc3ccc(Br)cc3)c2c1	H37Rv	EC50	-	broth dilution / resazurin	22.7 µg/mL
COC(=O)C1=C(C(=O)OC)C2(C)OC1C1OC12	H37Rv	inhibition	12.5 µg/mL	BACTEC	48%
O=[N+]([O-])c1cnc2n1CC(c1ccccc1)O2	H37Rv	MIC	-	-	1.95 µg/mL
CCOC(=O)C1=NN(c2ccccc2)C(C(=O)OC)[C@H]1C(=O)OC	H37Rv	MIC bound	-	-	>6.25 µg/mL
CO/N=C1\CCN(c2nc(=O)c3cc(C(F)(F)F)cc([N+](=O)[O-])c3s2)C1	H37Rv	MIC90	-	resazurin	0.116 µg/mL
CC1OC(C)C(O)C2=C1C(=O)c1ccccc1C2=O	H37Rv	inhibition	12.5 µg/mL	BACTEC	99%
COc1nc2ccc(Br)cc2cc1[C@@H](c1ccccc1)[C@@](O)(CCN(C)C)c1cccc2ccccc12	H37Rv-MA cydC::aph	MIC90	-	turbidity / fluorescence	0.43 µM
Cc1ccc(S(=O)(=O)N/C(=C/C=C/c2ccccc2)C(=O)C(C)(C)C)cc1	H37Rv	inhibition	12.5 µg/mL	BACTEC	10%
CCOC(=O)c1cc(-c2ccc(Cl)cc2)n(CC(=O)N/N=C/c2ccccc2)c1C	H37Rv	inhibition	6.25 µg/mL	-	97%

8 of the rows above, restated:

{"SMILES": "CO[C@H]1/C=C/O[C@@]2(C)Oc3c(C)c(O)c4c(O)c(c(SCCN)c(O)c4c3C2=O)NC(=O)/C(C)=C\\C=C\\[C@H](C)[C@H](O)[C@@H](C)[C@@H](O)[C@@H](C)[C@H](OC(C)=O)[C@@H]1C", "endpoint": "MIC", "value": "0.5 µg/mL"}
{"SMILES": "C=C1C(=O)OC2CC(C)C(C(O)CC(C)O)=CCC12", "strain": "H37Rv", "endpoint": "inhibition", "tested at": "12.8 µg/mL", "method": "BACTEC", "value": "15%"}
{"SMILES": "C=CCSc1nnc(-n2c(-c3ccccc3)nc3ccc(I)cc3c2=O)s1", "strain": "H37Rv", "endpoint": "MIC", "value": ">40 µg/mL"}
{"SMILES": "CC(C)(C)C1=CC(=O)C(C#N)=C(C#N)C1=O", "strain": "H37Rv", "endpoint": "MIC", "method": "BACTEC", "value": "32 µg/mL"}
{"SMILES": "NCC(=O)c1ccc(O)c(O)c1", "strain": "H37Rv", "endpoint": "MIC", "value": "10 µg/mL"}
{"SMILES": "Cc1ccc2[nH]c(O)c(N=NC(=S)Nc3ccc(Cl)cc3)c2c1", "strain": "H37Rv", "endpoint": "EC90", "method": "broth dilution / resazurin", "value": "3.568 µg/mL"}
{"SMILES": "Cc1ccc2c(c1)c(N=NC(=S)NC1CCCCC1)c(O)n2C", "strain": "H37Rv", "endpoint": "EC90", "method": "broth dilution / resazurin", "value": ">100 µg/mL"}
{"SMILES": "Cc1cc(/C=N/N2CCN(/N=C/c3cc(C)n(-c4ccccc4)c3C)CC2)c(C)n1-c1ccccc1", "strain": "H37Rv", "endpoint": "inhibition", "tested at": "6.25 µg/mL", "method": "resazurin", "value": "4%"}